Source: PubChem BioAssay AID1259414 (Drosophila RNAi Screening Center, 2018)

- Aim: 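Genome-wide screen for host control of endosymbiont load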 (primary screen)
- Cells: Drosophila JW18 cells infected with Wolbachia
- Reagents: long dsRNA against Drosophila genes, 0.25 µg dsRNA per well of a 384-well plate
- Duration: 5 days
- Challenge: cells persistently infected with Wolbachia before knock-down; no added drug
- Measurement: 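Imaged fluorescence in situ signal for Wolbachia 23S rRNA per DAPI-counted host cell, given as a robust z-score within each plate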
- Reading the numbers: Wolbachia per cell robust z: higher = more Wolbachia per host cell than the plate typical
- Hit rule: 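Hit when robust z is 1.5 or more, or -1.5 or less, in at least two of three replicates; excludes dsRNAs with several or no targets, genes not expressed in JW18 and well A1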
In all, the deposit lists about 24,000 reagents; below is a random part of those that have a named target and a result. In the full data, about 1,210 (5%) are marked active. 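Inactive calls also include excluded dsRNAs with several or no targets, genes unexpressed in JW18, and well A1, regardless of score.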 Unmarked entries are inactive. A plus sign joins genes that one reagent is predicted to hit.

gene | amplicon | Wolbachia per cell robust z, rep 1 | Wolbachia per cell robust z, rep 2 | Wolbachia per cell robust z, rep 3
CG13806 (GeneID 38292) | DRSC08341 | 0.595 | -0.48 | -1.88
CG17207 (GeneID 2768665) | DRSC15198 | -0.117 | -0.112 | -0.0537
Kank (GeneID 36668) | DRSC05513 | -1.04 | 0.444 | -0.0552
Kank (GeneID 36668) | DRSC05933 | 0.906 | -0.314 | 0.692
cGlr1 (GeneID 36744) | DRSC06270 | -0.228 | 0.478 | -2.59
Lztr1 (GeneID 31037) | DRSC18176 | -1.62 | 1.4 | -0.0787
Lztr1 (GeneID 31037) | DRSC18647 | 0.201 | 0.107 | 0.454
Lztr1 (GeneID 31037) | DRSC26706 | -1.29 | -1.64 | -1.23
Tina-1 (GeneID 37989) | DRSC04317 | 0.415 | -1.4 | 0.0615
PGRP-LD + Pmi | DRSC41276 | 1.15 | -0.941 | 0.676
Ipp (GeneID 41701) | DRSC16718 | -1 | 0.772 | 0.574
Ipp (GeneID 41701) | DRSC26058 | 1.77 (active) | 0.405 | 1.83
CG42336 (GeneID 36205) | DRSC05273 | -0.0154 | -0.0755 | 0.565
CG42336 (GeneID 36205) | DRSC06332 | -2.1 | -0.204 | -0.0283
CG42336 (GeneID 36205) | DRSC06333 | 0.172 | 0.0466 | -2.83
CG42336 (GeneID 36205) | DRSC28729 | 0.674 | -1.54 | -0.684
CG42336 (GeneID 36205) | DRSC29534 | -1.72 | -0.549 | -1.33
lncRNA:CR31044 (GeneID 10178917) | DRSC22451 | 0.0195 | 0.239 | -4
lncRNA:CR31044 (GeneID 10178917) | DRSC25989 | 0.359 | 0.584 | 0.3
Pop4 (GeneID 38889) | DRSC10955 | -3.62 | 0.491 | 1.36
Pop4 (GeneID 38889) | DRSC29825 | -0.0504 | -0.93 | -0.609
btn + CG6937 | DRSC16917 | -2.63 | -0.0255 | 0.0577
CG4806 (GeneID 37948) | DRSC04491 | 0.486 | 0.00753 | 0.0415
GlcAT-I (GeneID 251900) | DRSC17307 | 1.13 | -0.172 | 0.846
CG13398 (GeneID 34169) | DRSC02268 | -1.68 | -1.16 | -0.936
Sik3 (GeneID 37152) | DRSC06505 | -4.5 | 0.0572 | -0.473
Sik3 (GeneID 37152) | DRSC06771 | 0.364 | 0.117 | 0.0297
Sik3 (GeneID 37152) | DRSC29149 | 1.65 | 0.92 | 1.43
Sik3 (GeneID 37152) | DRSC29722 | 0.636 | -0.312 | 0.922
m-cup (GeneID 42076) | DRSC14430 | 0.99 | 0.465 | 1.06
CG13982 (GeneID 33895) | DRSC02314 | 0.657 | 0.071 | -7.64
CG30287 (GeneID 246530) | DRSC03875 | -1.06 | -0.069 | 0.0302
Prp18 (GeneID 42285) | DRSC16802 | 1.83 (active) | 0.0993 | 2.55
CG7272 (GeneID 39670) | DRSC10795 | -0.278 | -0.74 | -0.196
CG15130 (GeneID 35312) | DRSC02430 | -0.302 | -0.753 | 1.99
fau + CG45078 + CG45076 | DRSC12816 | -0.259 | 0.0277 | 0.254
ApepP (GeneID 35029) | DRSC01866 | 0.107 | 0.0447 | 0.601
Rbbp5 (GeneID 40239) | DRSC11778 | 1.36 | -0.717 | -1.09
Jhbp14 (GeneID 34728) | DRSC01988 | -2.45 | 0.542 | 0.434
Uvrag (GeneID 34735) | DRSC02932 | 0.621 | 0.0741 | 0.862
CG18343 (GeneID 36297) | DRSC06726 | 0.836 | 0.497 | 0.498
CG13284 (GeneID 35021) | DRSC02256 | 0.415 | 0.265 | -1.39
nxf4 (GeneID 40884) | DRSC12548 | 0.758 | -0.864 | -0.71
nxf4 (GeneID 40884) | DRSC41488 | -0.196 | -0.752 | -0.0471
CG9101 (GeneID 32452) | DRSC20152 | 0.671 | -2.38 | 0.0938
CG9101 (GeneID 32452) | DRSC27575 | 0.184 | -0.335 | 0.0214

Not a retest: entries from further up.
gene | amplicon | Wolbachia per cell robust z, rep 1 | Wolbachia per cell robust z, rep 2 | Wolbachia per cell robust z, rep 3
CG42336 (GeneID 36205) | DRSC06333 | 0.172 | 0.0466 | -2.83
CG42336 (GeneID 36205) | DRSC28729 | 0.674 | -1.54 | -0.684
CG42336 (GeneID 36205) | DRSC29534 | -1.72 | -0.549 | -1.33
lncRNA:CR31044 (GeneID 10178917) | DRSC22451 | 0.0195 | 0.239 | -4
lncRNA:CR31044 (GeneID 10178917) | DRSC25989 | 0.359 | 0.584 | 0.3
Pop4 (GeneID 38889) | DRSC10955 | -3.62 | 0.491 | 1.36
